PubChem BioAssay AID2315 (National Center for Advancing Translational Sciences (NCATS), 2010)
Only a part is listed here, and it is no random draw. Activity calls are given as the source filed them. No stated cut-off is given here; in the data, active means inhibition mostly above about 28% (no sharp cut-off); inactive means mostly below about 43%.

Test: A qHTS for Small Molecule Inhibitors of Shiga Toxin; on inhibition: 0% is about no effect
Conditions: Vero cells, Shiga toxin protein synthesis inhibition reporter; at 38.7 µM, hits give high values

SMILES	inhibition
CCOC(=O)c1ccc(NP(C)(=O)Oc2ccc(F)cc2)cc1 (stereo not drawn)	inactive: 10.1%
COc1ccc(OP(C)(=O)Nc2ccc(SC(F)(F)F)cc2)cc1 (stereo not drawn)	inactive: -4.66%
CCNC(=S)/N=C(\N)N[N+](=O)[O-]	inactive: -11.6%
CP(=O)(Nc1ccccc1)Oc1ccc(F)cc1 (stereo not drawn)	inactive: -2.12%
O=c1c2cc([N+](=O)[O-])ccc2[nH]c2c([N+](=O)[O-])cc([N+](=O)[O-])cc12	inactive: -3.59%
CCCCCOc1ccc(NP(C)(=O)Oc2ccc(Cl)cc2Cl)cc1 (stereo not drawn)	inactive: 3.33%
CCN(CC)CCCOC(=O)C(O)(c1ccccc1)C1CCCCC1 (stereo not drawn)	inactive: -5.1%
CP(=O)(Nc1ccccc1F)Oc1ccccc1 (stereo not drawn)	inactive: -4.68%
CC(C)c1ccc(OP(C)(=O)Nc2ccc(SC(F)(F)F)cc2)cc1 (stereo not drawn)	inactive: -7.98%
O=C(OCCN1CCN(CCOCc2ccccc2)CC1)C(O)(c1ccccc1)c1ccccc1	inactive: -11.2%
CCOP(C)(=S)SCC(=O)NC(C)(CC)C(=O)O (stereo not drawn)	inactive: 8.84%
c1nnnn1CCn1cnnn1	inactive: 25.2%
CP(=O)(Nc1ccc(SC(F)(F)F)cc1)Oc1ccc(F)cc1 (stereo not drawn)	inactive: -12.9%
Cc1ccccc1NP(C)(=O)Nc1ccccc1C	inactive: -12.9%
CP(=O)(Nc1ccc2c(c1)OCCO2)Oc1ccccc1 (stereo not drawn)	inactive: 44.8%
CN(C)CCOC(=O)C(O)(c1ccccc1)C1CCCCC1 (stereo not drawn)	inactive: -1.52%
COc1ccc(NP(C)(=O)Oc2ccccc2OC)cc1 (stereo not drawn)	inactive: -19.4%
COc1ccc(OP(C)(=O)Nc2cccc(Br)c2)cc1 (stereo not drawn)	inactive: -14.4%
C(Cc1nn[nH]n1)Cc1nn[nH]n1	inactive: 12.2%
O=[N+]([O-])c1ccc(OP2(=O)COCCO2)cc1 (stereo not drawn)	inactive: -6.05%
O=[N+]([O-])c1ncn(CCn2cnc([N+](=O)[O-])n2)n1	inactive: -2.63%
Cc1cc(-c2cccc3ccccc23)c(C)cn1.O=[N+]([O-])c1cc([N+](=O)[O-])c(O)c([N+](=O)[O-])c1	inactive: 24.6%
CCOC(=O)c1ccc(NP(C)(=O)Oc2ccc(Cl)cc2)cc1 (stereo not drawn)	inactive: -11.2%
CP(=O)(OC12CC3CC(CC(C3)C1)C2)OC12CC3CC(CC(C3)C1)C2	inactive: 29.7%
O=[N+]([O-])c1ncn(CCn2ncnc2[N+](=O)[O-])n1	inactive: -3.02%

SMILES	inhibition
COc1ccccc1OP(C)(=O)Nc1c(C)n(C)n(-c2ccccc2)c1=O (stereo not drawn)	inactive: 2.01%
O=C(OCCCN1CCCC1)C(O)(c1ccccc1)C1CCCCC1 (stereo not drawn)	inactive: -13.3%
CP(=O)(Oc1ccccc1)N1CCOC1=O (stereo not drawn)	inactive: 26.2%
O=[N+]([O-])c1cc([N+](=O)[O-])c(CCNc2ccccc2)c([N+](=O)[O-])c1	inactive: 13.6%
CCc1nc2c(n1)c1c(non1O)c1c2no[n+]1[O-]	inactive: -12.5%
CCc1ccc(OP(C)(=O)Nc2cccnc2)cc1 (stereo not drawn)	inactive: -18.4%
CCN(CC)CC(O)COC(=O)C(O)(c1ccccc1)C1CCCCC1 (stereo not drawn)	inactive: -1.45%
COc1ccc(OP(C)(=O)Nc2ccc(Br)cc2)cc1 (stereo not drawn)	inactive: 1.35%
CC(C)=N/N=C(\N)N[N+](=O)[O-]	inactive: -8.27%
CN(C)C(=O)c1c([N+](=O)[O-])cc([N+](=O)[O-])cc1[N+](=O)[O-]	inactive: 17.7%
CC(C)(C)c1ccc(OP(C)(=O)O)cc1	inactive: -11.2%
COc1ccccc1OP(C)(=O)Nc1ccccc1Br (stereo not drawn)	inactive: -16.5%
C[N+]1=C2C=CC=CC=C2SC12C([N+](=O)[O-])=CC([N+](=O)[O-])=C[C-]2[N+](=O)[O-] (stereo not drawn)	active: 130%
CP(=O)(Nc1ccc(Cl)cc1)Oc1ccc(F)cc1 (stereo not drawn)	inactive: 29.3%
COc1ccc(OP(C)(=O)Nc2ccccn2)cc1 (stereo not drawn)	inactive: -7.28%
CN(C)CCOC(=O)C(O)(c1ccccc1)C1CCCC1 (stereo not drawn)	inactive: -24.2%
COc1ccccc1OP(C)(=O)Nc1ccc(Br)cc1 (stereo not drawn)	inactive: 19.9%
CP(=O)(Nc1ccccn1)Oc1ccccc1 (stereo not drawn)	inactive: -2.69%
COc1ccccc1OP(C)(=O)Nc1ccc(C)cc1C (stereo not drawn)	inactive: -13.9%
CCc1ccc(OP(C)(=O)O)cc1	inactive: 36.6%
O=[N+]([O-])c1cc([N+](=O)[O-])c(Nc2ccccn2)c([N+](=O)[O-])c1	inactive: -3.7%
Nc1cc(N)c2nonc2c1[N+](=O)[O-]	inactive: 17.6%
Cc1c(NP(C)(=O)Oc2ccc(C(C)C)cc2)c(=O)n(-c2ccccc2)n1C (stereo not drawn)	inactive: -8.2%
COc1ccccc1OP(C)(=O)Nc1ccc(C)c(C)c1 (stereo not drawn)	inactive: -12.5%
COc1ccc(OP(C)(=O)Nc2ccccc2Br)cc1 (stereo not drawn)	inactive: -8.08%

SMILES	inhibition
Cc1cc(C)cc(OP(C)(=O)Nc2cccc(C(F)(F)F)c2)c1 (stereo not drawn)	inactive: -1.73%
CCN(N=Nc1nonc1N)c1nonc1N	inactive: -10.3%
CP(=O)(OCCOc1ccccc1)OCCOc1ccccc1	inactive: -7.3%
CP(=O)(Nc1ccc(Cl)cc1Cl)Oc1ccccc1 (stereo not drawn)	inactive: -6.65%
Cc1nc2ccc3ccccc3c2o1.O=[N+]([O-])c1cc([N+](=O)[O-])c(O)c([N+](=O)[O-])c1	active
O=[N+]([O-])c1cc([N+](=O)[O-])c(CCN2CCOCC2)c([N+](=O)[O-])c1	inactive: -2.28%
O=[N+]([O-])c1ccc2c(c1)C=Nc1ccccc1O2	inactive: -13.2%
CC(C)(C)c1ccc(OP(C)(=O)Nc2ccc(SC(F)(F)F)cc2)cc1 (stereo not drawn)	inactive: -6.48%
O=C(O)C(O)(c1ccccc1)c1ccccc1	inactive: 22.7%
Cc1cccc(C)c1OP(C)(N)=O (stereo not drawn)	inactive: -17%
O=C(O)C1(O)c2ccccc2-c2ccccc21	inactive: 4.9%
Cc1cc(C)cc(OP(C)(N)=O)c1 (stereo not drawn)	inactive: -12.4%
COc1ccccc1OP(C)(=O)Nc1cc(Cl)ccc1C (stereo not drawn)	inactive: 4.5%
COc1ccc(OP(C)(=O)Nc2cccc(F)c2)cc1 (stereo not drawn)	inactive: -11.1%
COc1ccccc1OP(C)(=O)Nc1ccc(C)cc1 (stereo not drawn)	inactive: 2.35%
Cc1ccc(NP(C)(=O)Oc2ccccc2)c(C)c1 (stereo not drawn)	inactive: 25.8%
CCOC(=O)c1ccc(NP(C)(=O)Oc2ccccc2)cc1 (stereo not drawn)	inactive: 10.1%
CCN(CC)CCCOC(=O)C(O)(c1ccccc1)c1ccccc1	inactive: 1.29%
CCc1ccc(OP(C)(=O)N2CCN(c3ccc([N+](=O)[O-])cc3)CC2)cc1 (stereo not drawn)	inactive: -14.9%
CP(=O)(NC(=O)Nc1ccccc1)Oc1ccccc1 (stereo not drawn)	inactive: -24.8%
Cc1cc(C)cc(OP(C)(=O)Nc2ccc(SC(F)(F)F)cc2)c1 (stereo not drawn)	inactive: 5.56%
CP(=O)(Nc1ccc(SC(F)(F)F)cc1)Oc1ccc(Cl)cc1 (stereo not drawn)	inactive: 18.6%
Cc1cccc(C)c1OP(C)(=O)Nc1ccc(SC(F)(F)F)cc1 (stereo not drawn)	inactive: 7.52%
CP(=O)(Oc1ccccc1)OC(c1ccccc1)C(F)(F)F (stereo not drawn)	inactive: -1.83%
CP(=O)(Nc1ccccn1)Oc1ccc(Cl)cc1 (stereo not drawn)	inactive: -6.96%

SMILES	inhibition
CCOC(=O)c1ccc(NP(C)(=O)Oc2ccc(OC)cc2)cc1 (stereo not drawn)	inactive: -9.67%
CCOP(C)(=S)SCC(=O)NC(C)C(=O)O (stereo not drawn)	inactive: 13.4%
CP(=O)(Nc1ccccc1Br)Oc1ccccc1 (stereo not drawn)	inactive: 10.3%
COc1ccccc1OP(C)(=O)Nc1ccccc1 (stereo not drawn)	inactive: -9.3%
CP(=S)(Nn1cnnc1)Oc1ccccc1 (stereo not drawn)	inactive: -8.9%
O=[N+]([O-])c1cc([N+](=O)[O-])c(Nc2nnnn2CCO)c([N+](=O)[O-])c1	inactive: -9.08%
CP(=O)(Nc1ccc(SC(F)(F)F)cc1)Oc1ccccc1 (stereo not drawn)	inactive: 0.722%
CCCOc1ccc(NP(C)(=O)Oc2ccc(Cl)cc2)cc1 (stereo not drawn)	inactive: -2.96%
CN1CCCCC1COC(=O)C1(O)c2ccccc2CCc2ccccc21 (stereo not drawn)	inactive: -14.9%
COc1ccccc1OP(C)(=O)Nc1c(C)cccc1C (stereo not drawn)	inactive: -17.2%
CC(C)N(CCCl)C(C)C	inactive: 26.5%
O=[N+]([O-])c1cc([N+](=O)[O-])c(-n2nnc3ccccc32)c([N+](=O)[O-])c1	inactive: -12.8%
Cc1nc2ccc3ccccc3c2s1.O=[N+]([O-])c1cc([N+](=O)[O-])c(O)c([N+](=O)[O-])c1	inactive: 7.93%
CCOC(=O)c1ccc(NP(C)(=O)Oc2cc(C)cc(C)c2)cc1 (stereo not drawn)	inactive: -6.07%
Cc1cc(C)cc(OP(C)(=O)Nc2ccc(C)cc2C)c1 (stereo not drawn)	inactive: -5.57%
COc1ccccc1OP(C)(=O)Nc1cccc(Br)c1 (stereo not drawn)	inactive: -3.62%
Cc1ccc(C)c(NP(C)(=O)Oc2ccccc2)c1 (stereo not drawn)	inactive: -4.44%
CP(=O)(Nc1cccc(Br)c1)Oc1ccccc1 (stereo not drawn)	inactive: -8.73%
Cc1cc(C)cc(OP(C)(=O)Nc2ccccn2)c1 (stereo not drawn)	inactive: -3.06%
Cc1ccc(NCCc2c([N+](=O)[O-])cc([N+](=O)[O-])cc2[N+](=O)[O-])cc1	inactive: 10.3%
CS(=O)(=O)c1cc([N+](=O)[O-])c2no[n+]([O-])c2c1	inactive: 9.18%
CC1=NCCc2c1[nH]c1ccccc21.O=[N+]([O-])c1cc([N+](=O)[O-])c(O)c([N+](=O)[O-])c1	inactive: -11.1%
O=[N+]([O-])OCC(CO[N+](=O)[O-])(CO[N+](=O)[O-])CO[N+](=O)[O-]	inactive: 16.3%
